Experimental data from patent US6525028B1, “Immunoeffector compounds” (Corixa Corporation, priority 2002, dated 2003).

Tested on: 51Cr-labeled transfected P815S cells expressing the L^d-restricted epitope
Experiment: CTL activity of spleen cells of HBsAg immunized mice, four hour 51Cr-release assay (Example 7)

Substance: N-[(R)-3-tetradecanoyloxytetradecanoyl]-(S)-2-pyrrolidinylmethyl 2-deoxy-4-O-phosphono-2-[(R)-3-tetradecanoyloxytetradecanoylamino]-3-O-[(R)-3-tetradecanoyloxytetradecanoyl]-β-D-glucopyranoside triethylammonium salt [Compound II]
- CTL activity, in words (versus antigen only controls): significantly elevated levels of CTL activity compared to the antigen only controls

Substance: Monophosphoryl lipid A [MPL® immunostimulant, reference compound]
- Percent Specific Killing (Effector:Target Ratio) 6.25:1 (E:T 6.25:1, spleen cells 9 days post-vaccination, four day incubation with peptide): 32%
- Percent Specific Killing (Effector:Target Ratio) 12.5:1 (E:T 12.5:1, spleen cells 9 days post-vaccination, four day incubation with peptide): 47%
- Percent Specific Killing (Effector:Target Ratio) 25:1 (E:T 25:1, spleen cells 9 days post-vaccination, four day incubation with peptide): 71%
- Percent Specific Killing (Effector:Target Ratio) 50:1 (E:T 50:1, spleen cells 9 days post-vaccination, four day incubation with peptide): 80%
